In the supplement of paper PMC9931576:
Human monoclonal antibodies against the spike receptor-binding domain (heavy:light variable regions). IC50 against pseudoviruses bearing the spike of naturally observed variants; lower = stronger; >10 µg/ml means not reached at the top dose. No active / inactive call. The stated detection limit is 0.0005 µg/ml; values near or below 0.001 µg/ml lie at the floor of the assay.

Assays:
Test in all cases: pseudovirus neutralization IC50; higher = weaker neutralization
[1] = molecular target: SARS-CoV-2 Omicron BA.1 spike pseudovirus
Description: (§1)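 Single-round VSV luciferase pseudovirus mixed with antibody dilutions for 1 h and put on Huh-7 cells for about a day; IC50 from the dose curve.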

[2] = molecular target: SARS-CoV-2 Omicron BA.2 spike pseudovirus
Description: as §1

[3] = molecular target: SARS-CoV-2 Omicron BA.2.75 spike pseudovirus
Description: as §1

[4] = molecular target: SARS-CoV-2 Omicron BA.5 spike pseudovirus
Description: as §1

[5] = molecular target: SARS-CoV-2 Omicron BQ.1.1 spike pseudovirus
Description: as §1

[6] = molecular target: SARS-CoV-2 Omicron XBB spike pseudovirus
Description: as §1

[7] = molecular target: SARS-CoV-2 early D614G spike pseudovirus
Description: as §1

| Binder | pseudovirus neutralization IC50 [1] | pseudovirus neutralization IC50 [2] | pseudovirus neutralization IC50 [3] | pseudovirus neutralization IC50 [4] | pseudovirus neutralization IC50 [5] | pseudovirus neutralization IC50 [6] | pseudovirus neutralization IC50 [7] |
| --- | --- | --- | --- | --- | --- | --- | --- |
| BD55-5946 (protein) chain 1: QDQLVQSGAEVKRPGSSVKVSCKTSGATFNNFAISWVRQAPGQGLEWMGRIIPILGIANYAQNFQDRVTIIADRSTSTAFLELSSLRSDDTAVYYCARGDGDYSMNYYYYHGMDLWGHGTTVTVSS chain 2: QSVLTQPPSVSAAPGQKVTISCSGSSSNIGNNYVSWYQQLPGTAPKLLISDNNKRPSGIPDRFSGSKSGTSATLGITGLQTGDEAHYYCGTWDTSLSVGVFGGGTKLTVL | > 10 µg/mL | > 10 µg/mL | > 10 µg/mL | > 10 µg/mL | > 10 µg/mL | > 10 µg/mL | > 10 µg/mL |
| BD55-5940 (protein) chain 1: QVQLQESGPGLVKPSQTLSLTCSVSGGSITGGIYYWSWIRQPAGKGLEWIGHVDSSGSTNYNPSLKSRVSISVLTSKNEFSLQVSSATAADTAVYYCARDSWTSTPLGYYYYMDVWGKGTTVTVSS chain 2: DVLMTQSPSTLSASVGDRVTITCRASQSVNTWLAWYQQKPGKAPKLLIYKASSLESGVPSRFSGSGSGTEFTLTISSLQPDDFATYYCQQFNGFLYTFGQGTKLEIK | > 10 µg/mL | > 10 µg/mL | > 10 µg/mL | > 10 µg/mL | > 10 µg/mL | > 10 µg/mL | > 10 µg/mL |
| BD55-5930 (protein) chain 1: EVQLVESGGGLVQPGGSLRLSCAASGFSFSAFGMNWVRQAPGKGLEWVSYISGSSSAIYYADSVRGRFTISRDNAKNSLFLQMNSLRAEDTAVYYCAREGQQWLVLTNWRGPFDPWGQGTLVTVSS chain 2: EIVLTQSPGTLSLSPGERATLSCRASQSLSSIINLAWYQQKPGQAPRLLIYGASSRATGIPDRFSGSGSGADFTLTISRLEPEDFAVYYCQQYGGSPPFTFGPGTKVDIK | > 10 µg/mL | > 10 µg/mL | > 10 µg/mL | > 10 µg/mL | > 10 µg/mL | > 10 µg/mL | > 10 µg/mL |
| BD55-5935 (protein) chain 1: QVQLVQSGGEVKKPGASVKVSCKASGNTFTRYGISWVRQAPGQGLEWMAWISVHNGNTNYAQKFQDRVTMTTETSTNTVYMELRSLRSDDTAVYYCARLTYYYDSSGYSELQMYYFDNWGQGTLVTVSS chain 2: DIQMTQSPSSLSASVGDRVTISCRASQSISTYLHWYQHKPGRAPQLLIFAASSLQSGVPSRFSGSGSGTDFTLTISSLRPEDSATYYCQQSYSTFLTFGGGTKVEIK | 0.16 µg/mL | > 10 µg/mL | > 10 µg/mL | > 10 µg/mL | > 10 µg/mL | > 10 µg/mL | 0.0346 µg/mL |
| BD55-1132 (protein) chain 1: EVQLVESGGGLVQPGGSLRLSCVASGFTFSNYDMHWVRQTAGKGLEWVSLIGTNGDTYYPDSVKGRFTISRDNAKNSLYLQMSSLRAGDTAVYFCVRVQYYYPSGESFPIYYGLDVWGQGTTVIVSS chain 2: DIQMTQSPSSLSVSVGDRVTITCRASQTIRTYLNWYQQKPGKAPKLLIYAASTLQSGVPPRFSGSGSGTEFTLTISSLQPEDFATYYCQQTYIIPPEDSFGQGTKLQIK | > 10 µg/mL | > 10 µg/mL | > 10 µg/mL | > 10 µg/mL | > 10 µg/mL | > 10 µg/mL | > 10 µg/mL |
| BD55-5916 (protein) chain 1: QVQLVESGGGLVKPGGSLRLSCAASGFTFSDYSMSWVRQAPGKGLEWVEWVSYITSTGTIYYADSVKGRFTISRDNAKNSLYLQMNSLRAEDTAVYYCARSLQLRYFDWVPDYWGQGTLLTVSS chain 2: ETVMTQSPATLSVSPGEGATLSCRASQSVSSNLAWYQQKPGQAPRLLIYSASTRATGIPARFSGSGSGTEFTLTISSLQSEDFAVYYCQQYHNWPPGRTFGQGTRVEIK | > 10 µg/mL | > 10 µg/mL | > 10 µg/mL | > 10 µg/mL | > 10 µg/mL | > 10 µg/mL | > 10 µg/mL |
| BD55-5933 (protein) chain 1: EVQLVESGGGLVKPGGSLRLSCEVSGFIFSSYSINWVRQAPGKGLEWVSSISGSSTFKFSAESVEGRFTISRDNARNSAYLQMNSLRVEDTAVYYCATNYVSLGSHVDAEYFHHWGQGTLVTVSS chain 2: EIVLTQSPAILSLSPGERATLSCRASQSIGNFLAWYQQKPGQAPRLLIYDASIRATGIPARFSGSGSGTDFTLTISSLEPEDFAVYYCQQRNTWPPLTFGGGTKVEIK | > 10 µg/mL | > 10 µg/mL | > 10 µg/mL | > 10 µg/mL | > 10 µg/mL | > 10 µg/mL | > 10 µg/mL |
| BD55-5943 (protein) chain 1: QVQLVQSGAEVKKPGSSVKVSCKASGGTFSSYATTWVRQAPGQGLEWMGGLIPMFGTANYAQKFQGRVTITADESTSTAYMELRSLRSEDTAVYYCARWAVLLWFEEGRDFYGLDVWGQGTTVTVSS chain 2: DIQMTQSPSSLSASVGDRVTITCRASQSISNYLNWYQQKPGIAPKLLIYATSSLQSGVPSRFSGSGSGTEFTLTITGLQPEDFETYYCQQSDSTPYTFGQGTKLEIK | > 10 µg/mL | > 10 µg/mL | > 10 µg/mL | > 10 µg/mL | > 10 µg/mL | > 10 µg/mL | > 10 µg/mL |
| BD55-5921 (protein) chain 1: LVESGGGSVKPGESLRLSCEGSGFIFPNVWLSWVRQVPGKGLEWVGRIKRQSDGGTADYAAAVKGRFSILRDDSRQEVVLQMNNVKSEDTAVYYCTTGATHYIYTANNFFDTWGQGILVDVSS chain 2: QSVLTQPPSASGTPGQRVTISCSGGSSNIGSNSVAWYQQVPGAAPKLLIFSDFQRPLGVPDRFFGSRSGTSASLAISRLQSEDGADYYCATWDDSLSGLVFGGGTNLIVL | > 10 µg/mL | > 10 µg/mL | > 10 µg/mL | > 10 µg/mL | > 10 µg/mL | > 10 µg/mL | > 10 µg/mL |
| BD55-5945 (protein) chain 1: EEQLVESGGGLVQPGRSLRLSCAASGFTFGDYTMHWVRQPPGRGLEWVSRIFWNSGNIGYADSVKGRFTISRDNAKNSLYLQMNSLRAEDTALYYCAKEIGGLGYSGYDFFSGNAIDIWGRGTMVTVSS chain 2: QSVLTQPPSVSGAPGQTVTISCTGTTSNIGAGYDVHWYQQLPGAAPKLLIYVNNNRPSGVPDRFSGSKSGTSASLAITGLQADDEADYYCQSFDSSLSGSYVFGTGTKVTVV | > 10 µg/mL | > 10 µg/mL | > 10 µg/mL | > 10 µg/mL | > 10 µg/mL | > 10 µg/mL | 0.0844 µg/mL |
| BD55-1128 (protein) chain 1: EVQLLESGGGLVQRGGSVRLSCAASGFPFVNYAMSWVRQAPGKGLEWVSAISDTGGLRFYADSVKGRFTISRDNSKNTVYLQMSSLRAEDTAVYYCARESMRELVGPNWFDPWGQGTVVTVSS chain 2: DIQMTQSPSSLSASVGDRVTITCRASQSVSNYLNWYQQRPGKAPKLLIYAASILQSGVPLRFSGSGSGTDFTLTITNLQPEDFATYYCQQSYAAPPWTFGQGTKVEIK | > 10 µg/mL | > 10 µg/mL | > 10 µg/mL | > 10 µg/mL | > 10 µg/mL | > 10 µg/mL | > 10 µg/mL |
| BD55-5925 (protein) chain 1: QVQLVQSGADVKKPGASVKVSCKASGYTFTSYYLHWVRQAPGQGLEWMGIINPSGGTIAYAQKFQGRVTMTRDTSTSTVYMELSSLRSEDTAVYYCASDITGGNYGYLQHWGQGTLVTVSS chain 2: QSVLTQPPSASGTPGQRVTISCSGSRSNIGSNYVFWYQQLPGTAPKLLIYKNNQRPSGVPDRFSGSKSGTSASLAISGLRSEDEADYYCAGWDDSLNGWVFGGGTKLTVL | > 10 µg/mL | > 10 µg/mL | > 10 µg/mL | > 10 µg/mL | > 10 µg/mL | > 10 µg/mL | 0.00287 µg/mL |
